From patent US10988505B2
pEC50: −log10 of the molar value.

Test system: PR8 H1N1 influenza virus
Assay: Influenza virus replication PR8 in Calu-3 cells (viral plaque assay)
Format: cell-based
Conditions: Calu-3 human bronchial epithelial cells, 48 h

Compound	pEC50
C[C@H](NC(=O)[C@H](CCC(N)=O)NC(=O)[C@@H](N)CCCNC(=N)N)C(=O)N[C@@H](CCCNC(=N)N)C(=O)c1nc2ccccc2s1 [Comparative #1, reference compound]	5.30
N=C(N)NCCCCC(=O)N[C@@H](CCC(N)=O)C(=O)N[C@@H](Cc1ccccc1)C(=O)N[C@@H](CCCNC(=N)N)C(=O)c1nc2ccccc2s1 [Example 1]	7.56
CC(=O)N[C@@H](CCC(N)=O)C(=O)N[C@@H](Cc1ccccc1)C(=O)N[C@@H](CCCNC(=N)N)C(=O)c1nc2ccccc2s1 [Example 3]	8.64
